Anti-infective test results gathered from many reports (values: NIAID ChemDB through PubChem).

Common to all: tests in culture; agent: Cryptococcus neoformans; method: broth dilution; endpoint: MIC

Neighbouring rows are from separate reports. An empty or dashed field is not shown.

compound | strain | value
CC1=C2C3=C4[C@](C)([C@@H]5C[C@@H]5[C@@]4(O)C[C@@H]4[C@]35OC(=O)C3=C5C[C@H]5[C@](O)(COC(=O)/C(C)=C/COC(=O)CCC(=O)OC3)[C@H]3C[C@H]3[C@]45C)[C@@H](O)[C@]2(O)OC1=O | ATCC 22402 | 128 µg/mL
CCC(C)CC(C)CCCCCCCCC(=O)N[C@H]1C[C@@H](O)[C@H](NCCN)NC(=O)[C@@H]2[C@@H](O)CCN2C(=O)[C@H]([C@H](O)CCN)NC(=O)[C@H]([C@H](O)[C@@H](O)c2ccc(O)cc2)NC(=O)[C@@H]2C[C@@H](O)CN2C(=O)[C@H]([C@@H](C)O)NC1=O | C237 | >16 µg/mL
CCCCCCCCCCCCCCCCCC(=O)NC(CCCN)C(=O)NC(CCCN)C(=O)NC(CCCN)C(N)=O | ATCC 2344 | 6.25 µg/mL
CCc1c(OC)ccc2sc(C)nc12 | KCCM 50564 | >100 µg/mL
Nc1scc2c1c(=O)oc1ccc3ccccc3c12 | IP 90526 | 4 µg/mL
Cc1coc2c1C(=O)[C@@H]1[C@@](C)(C2)[C@H](O)CC[C@@]1(C)O | ATCC 22402 | >256 µg/mL
Cc1nc2c(s1)C(=O)C(Nc1ccccc1)=C(Cl)C2=O | KCCM 50564 | 12.5 µg/mL
O=[N+]([O-])c1ccc(C=Nc2ccccc2O)cc1 | 28JF | 11.3 µg/mL
CCC(C)CC(C)CCCCCCCCC(=O)N[C@H]1C[C@@H](O)[C@H](NCCN)NC(=O)[C@@H]2[C@@H](O)CCN2C(=O)[C@H]([C@H](O)CCN)NC(=O)[C@H]([C@H](O)[C@@H](O)c2ccc(O)cc2)NC(=O)[C@@H]2C[C@@H](O)CN2C(=O)[C@H]([C@@H](C)O)NC1=O | B 34336 | 8 µg/mL
Oc1ccccc1N=Cc1ccc(O)c(O)c1O | GM | 11.3 µg/mL
Cn1nc(Cc2ccc(Cl)cc2)c2ccccc2c1=O | Clinical isolate (IM 983040) | 3.9 µg/mL
CCCCCCCCCCCCCCCC(=O)NC(CCCN)C(=O)NC(CCCN)C(N)=O | ATCC 2344 | 6.25 µg/mL
Oc1ccccc1N=Cc1ccc(F)cc1 | 5396 | 8 µg/mL
Cc1coc2c1C(=O)[C@@H]1[C@](C)([C@H](O)CC[C@@]1(C)O)[C@@H]2O | ATCC 22402 | >256 µg/mL
CCOC(=O)c1c(N)oc2c1cc(O)c1sc(C)nc12 | KCCM 50564 | 25 µg/mL
CCN(CC)c1ccc2cc(NNN)c(=O)oc2c1 | ATCC | >990 µM
Oc1cccc(C=Nc2ccccc2O)c1 | 28JF | 5.7 µg/mL
C[C@@H](c1ncncc1F)[C@](O)(Cn1cncn1)c1ccc(F)cc1F | Clinical isolate (IM 972751) | <0.015 µg/mL
CC(C)S(=O)(=O)N1CCN(c2cnn(-c3cc(F)cc(F)c3)c(=O)c2OC2CCC(F)C2)CC1 | C237 | 4 µg/mL
CCCCCCCCCCCC(=O)NC(CCCN)C(=O)NC(CCCN)C(=O)NC(CCCN)C(=O)NC(CCCN)C(N)=O | ATCC 2344 | 12.5 µg/mL
Nc1[nH]c(=O)ncc1F | - | 12.5 µg/mL
COC(=O)/C(C)=C1\C(=O)[C@H](O)[C@]2(C)C3=C1[C@]14OC(=O)C5=C1C[C@H]1[C@](O)(COC(=O)/C(C)=C/COC(=O)CCC(=O)OC5)[C@H]5C[C@H]5[C@]1(C)[C@@H]4C[C@]3(O)[C@H]1C[C@H]12 | ATCC 22402 | 16 µg/mL
COC(=O)c1c(N)oc2c1cc(O)c1sc(C)nc12 | KCCM 50564 | 25 µg/mL
Oc1ccc(O)c(C=Nc2ccccc2O)c1 | WP | 8 µg/mL

Repeating the first 3 entries:

CC1=C2C3=C4[C@](C)([C@@H]5C[C@@H]5[C@@]4(O)C[C@@H]4[C@]35OC(=O)C3=C5C[C@H]5[C@](O)(COC(=O)/C(C)=C/COC(=O)CCC(=O)OC3)[C@H]3C[C@H]3[C@]45C)[C@@H](O)[C@]2(O)OC1=O ; strain: ATCC 22402 ; value: 128 µg/mL
CCC(C)CC(C)CCCCCCCCC(=O)N[C@H]1C[C@@H](O)[C@H](NCCN)NC(=O)[C@@H]2[C@@H](O)CCN2C(=O)[C@H]([C@H](O)CCN)NC(=O)[C@H]([C@H](O)[C@@H](O)c2ccc(O)cc2)NC(=O)[C@@H]2C[C@@H](O)CN2C(=O)[C@H]([C@@H](C)O)NC1=O ; strain: C237 ; value: >16 µg/mL
CCCCCCCCCCCCCCCCCC(=O)NC(CCCN)C(=O)NC(CCCN)C(=O)NC(CCCN)C(N)=O ; strain: ATCC 2344 ; value: 6.25 µg/mL